Measured values from several laboratories, pooled; numbers as filed in NIAID ChemDB.

Common to all: tests in culture; agent: Aspergillus fumigatus

ECn: concentration that inhibits the pathogen or its effect by n%.

SMILES,strain or isolate,method,setting,endpoint,dose,result
O=[N+]([O-])c1cc(CSc2cccc[n+]2[O-])cc([N+](=O)[O-])c1,231,broth dilution,48 h,EC50,-,>500 µM
C[C@@H](c1nc(-c2ccc(C#N)cc2)cs1)[C@](O)(Cn1cncn1)c1cc(F)ccc1F,-,-,-,MIC50,-,0.25–1 µg/mL
C[C@@H](c1ncncc1F)[C@](O)(Cn1cncn1)c1ccc(F)cc1F,NFI 0239,-,-,MFC,-,1 µg/mL
O=[N+]([O-])c1cc(CSc2nnnn2-c2ccc(Cl)c(Cl)c2)cc([N+](=O)[O-])c1,231,broth dilution,24 h,EC50,-,>125 µM
COc1ccccc1O,-,agar,-,MIC50,-,200 µg/mL
O=[N+]([O-])c1cc(C[Se]c2nnnn2Cc2ccccc2)cc([N+](=O)[O-])c1,231,broth dilution,24 h,EC50,-,>500 µM
CCc1ccc(O)c(OC)c1,-,agar,-,MIC100,-,628 µg/mL
CC(=O)OC[C@H]1O[C@@H](n2[nH]c(-c3ccccc3)[n+](/N=C/c3ccc(C)cc3)c2=S)[C@H](OC(C)=O)[C@@H](OC(C)=O)[C@@H]1OC(C)=O,-,agar diffusion / agar,-,zone,2.5 mg/mL,1–5 mm
CNCCC(Oc1ccc(C(F)(F)F)cc1)c1ccccc1,10 clinical isolates,-,-,MFC,-,156–312 µg/mL
COc1ccc(/C=N/n2c(S[C@@H]3O[C@H](COC(C)=O)[C@@H](OC(C)=O)[C@H](OC(C)=O)[C@H]3OC(C)=O)nnc2-c2cccnc2)cc1,-,agar diffusion / agar,-,zone,5 mg/mL,1–5 mm
COc1cccc(OC)c1O,-,agar,-,MIC50,-,>1000 µg/mL
O=C(O)c1cccc(-n2nnnc2SCc2cc([N+](=O)[O-])cc([N+](=O)[O-])c2)c1,231,broth dilution,24 h,EC50,-,>500 µM
CC(=O)OC[C@H]1O[C@@H](Sc2nnc(-c3cccnc3)n2/N=C/c2ccc(C)cc2)[C@H](OC(C)=O)[C@@H](OC(C)=O)[C@@H]1OC(C)=O,-,agar diffusion / agar,-,zone,2.5 mg/mL,1–5 mm
C[C@H]1[C@H](O)[C@@H](C)/C=C/C=C/C=C/C=C/C=C/C=C/C=C/[C@H](O[C@@H]2O[C@H](C)[C@@H](O)[C@H](N)[C@@H]2O)C[C@@H]2O[C@](O)(C[C@@H](O)C[C@@H](O)CC[C@H](O)[C@@H](O)C[C@@H](O)CC(=O)O[C@H]1C)C[C@H](O)[C@H]2C(=O)O,AB16.4,agar,-,inhibition,16 µg/mL,60%
O=C(O)c1ccccc1O,-,agar,-,MIC100,-,623 µg/mL
CCCCCOc1ccc(-c2cc(-c3ccc(C(=O)N[C@H]4C[C@@H](O)[C@@H](O)NC(=O)[C@@H]5[C@@H](O)[C@@H](C)CN5C(=O)[C@H]([C@H](O)CC(N)=O)NC(=O)[C@H]([C@H](O)[C@@H](O)c5ccc(O)c(OS(=O)(=O)O)c5)NC(=O)[C@@H]5C[C@@H](O)CN5C(=O)[C@H]([C@@H](C)O)NC4=O)cc3)no2)cc1,-,-,-,MIC90,-,0.015 µg/mL
C[C@H]1[C@H](O)[C@@H](C)/C=C/C=C/C=C/C=C/C=C/C=C/C=C/[C@H](O[C@@H]2O[C@H](C)[C@@H](O)[C@H](N)[C@@H]2O)C[C@@H]2O[C@](O)(C[C@@H](O)C[C@@H](O)CC[C@H](O)[C@@H](O)C[C@@H](O)CC(=O)O[C@H]1C)C[C@H](O)[C@H]2C(=O)O,231,broth dilution,-,inhibition,0.54 µM,50%
OC(Cn1cncn1)(Cn1cncn1)c1ccc(F)cc1F,NFI 0239,-,-,MFC,-,>128 µg/mL
CCc1ccccc1O,-,agar,-,MIC50,-,58 µg/mL
CN(C/C=C/C#CC(C)(C)C)Cc1cccc2ccccc12,-,agar diffusion / agar,-,zone,5 mg/mL,10–15 mm
CCCCCOc1ccc(-c2ccc(-c3ccc(C(=O)N[C@H]4C[C@@H](O)[C@@H](O)NC(=O)[C@@H]5[C@@H](O)[C@@H](C)CN5C(=O)[C@H]([C@H](C)O)NC(=O)[C@H]([C@H](O)[C@@H](O)c5ccc(O)cc5)NC(=O)[C@@H]5C[C@@H](O)CN5C(=O)[C@H]([C@H](C)O)NC4=O)cc3)cc2)cc1,-,-,-,MIC90,-,0.015 µg/mL
CC(=O)OC[C@H]1O[C@@H](Sc2ncc(-c3cccnc3)n2N)[C@H](OC(C)=O)[C@@H](OC(C)=O)[C@@H]1OC(C)=O,-,agar diffusion / agar,-,zone,1 mg/mL,1–5 mm
CCC(C)n1ncn(-c2ccc(N3CCN(c4ccc(OC[C@H]5CO[C@](Cn6cncn6)(c6ccc(Cl)cc6Cl)O5)cc4)CC3)cc2)c1=O,60 isolates,-,-,MIC90,-,>16 µg/mL
COc1ccc(/C=N/[n+]2c(-c3ccccc3)[nH]n([C@@H]3O[C@H](COC(C)=O)[C@@H](OC(C)=O)[C@H](OC(C)=O)[C@H]3OC(C)=O)c2=S)cc1,-,agar diffusion / agar,-,zone,2.5 mg/mL,1–5 mm
COc1cc(C(=O)O)cc(OC)c1O,-,agar,-,MIC100,-,>1000 µg/mL
CC(=O)OC[C@H]1O[C@@H](n2nc(-c3cccnc3)n(/N=C/c3ccc(Cl)cc3)c2=S)[C@H](OC(C)=O)[C@@H](OC(C)=O)[C@@H]1OC(C)=O,-,agar diffusion / agar,-,zone,5 mg/mL,1–5 mm
O=[N+]([O-])c1cc(CSc2nnnn2Cc2ccccc2)cc([N+](=O)[O-])c1,231,broth dilution,24 h,EC50,-,>500 µM

Repeating the final 2 entries:

SMILES,strain or isolate,method,setting,endpoint,dose,result
CC(=O)OC[C@H]1O[C@@H](n2nc(-c3cccnc3)n(/N=C/c3ccc(Cl)cc3)c2=S)[C@H](OC(C)=O)[C@@H](OC(C)=O)[C@@H]1OC(C)=O,-,agar diffusion / agar,-,zone,5 mg/mL,1–5 mm
O=[N+]([O-])c1cc(CSc2nnnn2Cc2ccccc2)cc([N+](=O)[O-])c1,231,broth dilution,24 h,EC50,-,>500 µM

An empty or dashed field is not shown. Zone: diameter of growth inhibition. Percent inhibition refers to the dose given; in toxicity tests it is the harm to the cells. a–b is a range or a potency band. A number after MIC or MFC names an inhibition level or a share of isolates. Rows are shuffled and stem from different studies.